Compound potency records, mixed from different reports. Data source: NIAID ChemDB in PubChem.

Common to all: tests in culture; species: Human cytomegalovirus; method: plaque count; measure: EC50

ECn is the concentration giving n% inhibition of infection, replication or growth.

compound,strain,cell line,value
CC1(C)OC[C@]2(C)[C@@H](CC[C@@]3(C)[C@H]2CC[C@H]2C[C@@H]4CC23CCC4=O)O1,-,HFF,>500 µM
Nc1nc(F)nc2c1ncn2/C=C1\CC1CO,TOWNE,HFF,>100 µM
Nc1nc2c(ncn2COC(CO)CO)c(=O)[nH]1,Isolate 6,HEF,42.7 µM
COC(=O)[C@H](C)NP(=O)(OC[C@H]1C/C1=C/n1cnc2c(OC)nc(N)nc21)Oc1ccccc1,TOWNE,HFF,0.16 µM
COc1cc2cc3c(c(-c4ccc5c(c4)OCO5)c2c(OC)c1OC)C(=O)OC3,-,-,1.4 µM
COC(=O)c1cc(O)c(O)c(O)c1,AD169,HEL,6.7 µg/mL
NC(=O)c1c(N)n(COC(CO)CO)c2ncnc(N)c12,-,HFF,>100 µM
COc1ccc(-c2c3c(cc4cc5c(cc24)OCO5)C(=O)OC3)cc1OC,-,-,7.2 µM
COc1cc(O)c2c(=O)c3cccc(O)c3n(C)c2c1OC,-,HEF,1.5 µg/mL
Cc1cccc2c1OP(=O)(OC[C@H]1O[C@@H](n3cc(/C=C/Br)c(=O)[nH]c3=O)C[C@@H]1OC(=O)C(C)C)OC2,AD169,HELF,>128 µg/mL
Brc1nc(Br)c(Br)[nH]1,-,HFF,27 µM
NC(=O)c1nc(F)c[nH]c1=O,-,HEL,>100 µg/mL
Nc1nc(NC2CC2)c2ncn(/C=C3/C[C@H]3CO)c2n1,AD169,HFF,>74 µM
CCOC(=O)c1cc(O)c(O)c(O)c1,AD169,HEL,4.5 µg/mL
O=C(NCCc1c[nH]c2ccccc12)C1=Cc2ccncc2CC1,C8704,MRC-5,0.09 µM
NC(=O)c1c(N)n([C@@H]2O[C@H](CO)[C@@H](O)[C@H]2O)c2ncnc(N)c12,-,HFF,3 µM
Nc1nc2c(ncn2COC(CO)CO)c(=O)[nH]1,LY9990 (ganciclovir-resistant),HEL,≥26.2 µg/mL
Nc1nc(N)c2ncn(/C=C3/C[C@H]3CO)c2n1,AD169,HFF,>431 µM
COC(=O)[C@H](C)NP(=O)(OC[C@H]1C/C1=C/n1cnc2c(=O)[nH]c(N)nc21)Oc1ccccc1,TOWNE,HFF,4.2 µM
C[C@]12CCC3OC[C@@]3(C)[C@@H]1CC[C@H]1C[C@@H]3CC12CCC3=O,-,HFF,>500 µM
COC(=O)C(C)NP(=O)(OC[C@@H]1C/C1=C/n1cnc2c(N)nc(N)nc21)Oc1ccccc1,TOWNE,HFF,23 µM
Nc1nc(Cl)nc2c1ncn2/C=C1/CC1CO,TOWNE,HFF,3.5 µM
NC(=O)c1c(Cl)c(-c2cccnc2)n2c1C(O)CCC2,AD169,MRC-5,0.02 µM
CCOC(=O)C1=Cc2cc(OC)c(OC)c(OC)c2[C@@H](c2ccc(OC)c(OC)c2)[C@@H]1C(=O)OCC,-,-,22 µM
COc1cc(O)c2c(=O)cc(-c3ccc(OC)c(-c4c(O)cc(O)c5c(=O)cc(-c6ccc(O)cc6)oc45)c3)oc2c1,TOWNE,HeLa,1.75 µg/mL
O=c1[nH]c(=O)n([C@H]2C[C@H](O)[C@@H](COP3(=O)OCc4cc(-c5ccccc5)ccc4O3)O2)cc1/C=C/Br,AD169,HELF,>128 µg/mL
Nc1ncnc2c1ncn2[C@H]1C[C@]12C[C@H]2CO,TOWNE,HFF,20 µM
NC(=O)c1ncn([C@@H]2O[C@H](CO)[C@@H](O)[C@H]2O)n1,AD-169 (20 PFU),HEL,>100 µg/mL
NC(=O)c1c(Br)n(COCCO)c2ncnc(N)c12,-,HFF,>100 µM
CC(=O)Nc1ccc(Nc2cc(S(=O)(=O)O)c(N)c3c2C(=O)c2ccccc2C3=O)cc1,EC,HFF,20 µM
OCC1OC(n2c(NC3CC3)nc3nc4cc(Cl)c(Cl)cc4nc32)C(O)C1O,TOWNE,HFF,32 µM
Nc1nc2c(ncn2COC(CO)CO)c(=O)[nH]1,TOWNE,HFF,7.4 µM
CC1=CC(S(=O)(=O)O)=C(Nc2cccc3c2C(=O)c2cccc(Nc4ccc(C)cc4S(=O)(=O)O)c2C3=O)CC1,EC,HFF,50 µM
NC(=O)c1cn([C@@H]2O[C@H](CO)[C@@H](O)[C@H]2O)c2ncnc(N)c12,TOWNE,HFF,0.03 µM
COC(=O)C(C)NP(=O)(OC[C@H]1C/C1=C/n1cnc2c(N)nc(N)nc21)Oc1ccccc1,AD169,HFF,5.5 µM
O=c1[nH]c(=S)n([C@H]2C[C@H](O)[C@@H](CO)O2)cc1F,AD169,MRC-5,>383 µM
C[C@@]12COCO[C@@H]1CC[C@@]1(C)[C@H]2CC[C@H]2C[C@@H]3CC21CCC3=O,-,HFF,>500 µM
CC1CNCCN1S(=O)(=O)c1cccc2cnccc12,AD169,HEF,12.5 µM
N#Cc1c(Br)n(COCCO)c2ncnc(N)c12,-,HFF,>100 µM
CC(C)Nc1nc2nc3cc(Cl)c(Cl)cc3nc2n1C1OC(CO)C(O)C1O,TOWNE,KB,32 µM
Nc1ncnc2c1ncn2[C@@H]1C[C@H](c2ccccc2)[C@@H](O)[C@H]1O,DAVIS (20 PFU),HEL,18.1 µg/mL
O=c1[nH]c(=S)n([C@@H]2O[C@H](CO)[C@@H](O)[C@@H]2O)cc1I,AD169,MRC-5,>259 µM
N#Cc1c(N)n(COC(CO)CO)c2ncnc(N)c12,-,HFF,>100 µM
Nc1nc(=S)n([C@H]2C[C@H](O)[C@@H](CO)O2)cc1I,AD169,MRC-5,>283 µM
CC(C)NCC(O)c1ccc(O)c(O)c1,DAVIS,HEL,70 µg/mL
O=c1cc(-c2ccc(O)c(O)c2)oc2cc(O)cc(O)c12,AD169,HEF,10.1 µM
C[C@@]1(CO)[C@H](O)CC[C@@]2(C)[C@H]1CC[C@H]1C[C@@H]3C[C@@]12CC[C@@]3(C)O,-,HFF,>500 µM
Nc1ccn(C[C@@H](CO)OCP(=O)(O)O)c(=O)n1,LY9990 (ganciclovir-resistant),HEL,0.4 µg/mL
C[C@]12CCC3OC[C@@]3(C)[C@@H]1CC[C@H]1C[C@@H]3CC12CC[C@]3(O)CO,-,HFF,>500 µM
N#Cc1cn([C@@H]2O[C@H](CO)[C@@H](O)[C@@H]2O)c2ncnc(N)c12,TOWNE,HFF,1.7 µM
C[C@@H]1C[C@@H](n2cnc3c(N)ncnc32)[C@H](O)[C@@H]1O,DAVIS (20 PFU),HEL,25 µg/mL
C=C1CCC23C[C@H]1C[C@@H]2CC[C@H]1[C@](C)(CO)[C@H](O)CC[C@@]13C,-,-,1.4 µM
NC(=O)c1c(Br)n([C@@H]2O[C@H](CO)[C@@H](O)[C@H]2O)c2ncnc(N)c12,-,HFF,3 µM
Nc1ncnc2c1ncn2[C@@H]1C=C[C@@H](O)[C@H]1O,AD-169 (20 PFU),HEL,2.5 µg/mL
Cc1cccc2c1OP(=O)(OC[C@H]1O[C@@H](n3cc(/C=C/Br)c(=O)[nH]c3=O)C[C@@H]1OC(=O)[C@@H](C)N)OC2,AD169,HELF,>128 µg/mL
COC(=O)[C@H](C)NP(=O)(OC[C@H]1C/C1=C/n1cnc2c(N)nc(N)nc21)Oc1ccccc1,AD169,HFF,7.8 µM
CCCC/C(O)=C(\C#N)C(=O)Nc1ccc(C(F)(F)F)cc1,TW-087,HEL 299,1040–1150 µM
Nc1c(S(=O)(=O)O)cc(Nc2ccc(S(=O)(=O)O)c(Nc3nc(Cl)nc(Cl)n3)c2)c2c1C(=O)c1ccccc1C2=O,EC,HFF,15 µM
C[C@@]1(CO)[C@H](O)CC[C@@]2(C)[C@H]1CC[C@H]1C[C@@H]3CC12CC=C3CO,-,-,3.4 µM
O=C(O)P(=O)(O)O,AD169,MRC-5,18.52 µM
C[C@H]1CCC/C=C/[C@@H]2C[C@H](O)C[C@H]2[C@@H](O)/C=C/C(=O)O1,AD169,HFF,0.019 µM
Nc1[nH]c(=O)nc2c1ncn2/C=C1/C[C@@H]1CO,TOWNE,HFF,>100 µM
O=C(O)C[C@H](NCCN[C@@H](CC(=O)O)C(=O)O)C(=O)O,CMV5USA,HEL,11.7 µg/mL
COc1cc(NC(=O)Nc2cccc(CNC(=O)O[C@H]3CCOC3)c2)ccc1-c1cnco1,TOWNE,HFF,0.8 µM
CC(C)Nc1nc2cc(Cl)c(Cl)cc2n1[C@H]1O[C@@H](CO)[C@H](O)[C@@H]1O,AD169,MRC-5,0.41 µM
CCCCOC(=O)N(CC(=O)Nc1ccc(-c2csc(N)n2)cc1)Cc1ccccc1,-,HS68,12 µM

For reference, 4 entries again:

compound,strain,cell line,value
CC1=CC(S(=O)(=O)O)=C(Nc2cccc3c2C(=O)c2cccc(Nc4ccc(C)cc4S(=O)(=O)O)c2C3=O)CC1,EC,HFF,50 µM
COc1cc(O)c2c(=O)c3cccc(O)c3n(C)c2c1OC,-,HEF,1.5 µg/mL
COC(=O)C(C)NP(=O)(OC[C@H]1C/C1=C/n1cnc2c(N)nc(N)nc21)Oc1ccccc1,AD169,HFF,5.5 µM
OCC1OC(n2c(NC3CC3)nc3nc4cc(Cl)c(Cl)cc4nc32)C(O)C1O,TOWNE,HFF,32 µM

a–b is a range or a potency band. Rows are shuffled and stem from different studies. An empty or dashed field is not shown.